Results of unrelated studies side by side (data: NIAID ChemDB).

Common to all: growth or infection tests; organism: Cowpox virus; measure: EC50

An empty or dashed field is not shown. Conditions beyond the fields shown may differ between rows. ECn is the concentration giving n% inhibition of infection, replication or growth.

SMILES,strain or isolate,cells,result
Nc1nccc2c1ncn2[C@@H]1C[C@H](CO)[C@@H](O)[C@H]1O,-,VERO,>100 µg/mL
Nc1nc(=O)n([C@@H]2O[C@H](CO)[C@@H](O)[C@@H]2F)cc1I,Brighton,VERO,39 µM
Cc1cc(C)nc(NS(=O)(=O)c2ccc(N=C3C(=O)N(C(=O)c4ccccc4)c4ccccc43)cc2)n1,-,HFF,86.5 µM
Cc1cn([C@@H]2O[C@H](CO)[C@@H](O)[C@@H]2O)c(=O)[nH]c1=O,Brighton,VERO,123 µM
Cn1c(O)c(N=NC(N)=S)c2ccccc21,-,VERO,49.2 µg/mL
Nc1nc2c(ncn2CCOCP(=O)(O)O)c(=O)[nH]1,Brighton,HFF,10.6 µM
Cc1cc(C)nc(NS(=O)(=O)c2ccc(N=C3C(=O)N(CN4CCNCC4)c4ccccc43)cc2)n1,-,HFF,>60 µM
Nc1ncnc2c1ncn2[C@@H]1O[C@H](CO)[C@@H](O)[C@@H]1O,Brighton,VERO,6.1 µM
Nc1ccn(C[C@H]2COP(=O)(O)CO2)c(=O)n1,-,VERO,26.9 µg/mL
Nc1ccn([C@@H]2C=C(CO)[C@@H](O)[C@H]2O)c(=O)n1,CPX,VERO,0.05 µg/mL
Nc1nc2c(ncn2[C@@H]2O[C@H](CO)[C@@H](O)[C@@H]2O)c(=O)[nH]1,Brighton,C1271,1.2 µM
Nc1ncc2c(ncn2COC(CO)CO)n1,Brighton,C1271,3.5 µM
Cc1ccc2c(c1)C(=Nc1ccc(S(=O)(=O)Nc3nc(C)cc(C)n3)cc1)C(=O)N2,-,HFF,96 µM
Nc1nc(=O)n([C@@H]2C=C(CO)[C@@H](O)[C@H]2O)cc1I,Brighton,-,8.7 µg/mL
CC(C)(C)C(=O)OCOP(=O)(COCCn1cnc2c(N)ncnc21)OCOC(=O)C(C)(C)C,-,LLC-MK2,86 µg/mL
Nc1ccn(C[C@@H](CO)OCP(=O)(O)O)c(=O)n1,Brighton,C1271,1.1 µM
Cc1cn([C@H]2C[C@H](O)[C@]3(CO)C[C@H]23)c(=O)[nH]c1=O,Brighton,HFF,1.5 µg/mL
Nc1ncnc2c1ncn2[C@@H]1C[C@H](NC=O)[C@@H](O)[C@H]1O,-,HFF,>100 µg/mL
O=c1[nH]c(=O)n([C@@H]2O[C@H](CO)[C@@H](O)[C@@H]2F)cc1I,Brighton,C1271,0.16 µM
Nc1nc(=O)n([C@@H]2C=C(CO)[C@@H](O)[C@H]2O)cc1Cl,Brighton,-,21.1 µg/mL
O=c1[nH]cnc2c1ncn2[C@@H]1C=C(CO)[C@@H](O)[C@H]1O,CPX,VERO,>100 µg/mL

Repeating the final 2 entries:

SMILES | strain or isolate | cells | result
Nc1nc(=O)n([C@@H]2C=C(CO)[C@@H](O)[C@H]2O)cc1Cl | Brighton | - | 21.1 µg/mL
O=c1[nH]cnc2c1ncn2[C@@H]1C=C(CO)[C@@H](O)[C@H]1O | CPX | VERO | >100 µg/mL